These are literature values, as cited in patent US20060094755A1, “Novel quinoline-based metal chelators as antiviral agents” (Bioflexis, LLC, priority 2004, published 2006).

One may read the IC50 as the concentration at which inhibition is half-maximal.

This data set addresses HIV-1 IN (integrase) (Human immunodeficiency virus type 1 group M subtype B, UniProt P04585). As to conditions: cited from earlier work.

For the molecule `O=C(CC(=O)c1ccc(Cc2cccc(F)c2)o1)c1nc[nH]n1`, the IC50 is 10 nM.
